Anti-infective test results gathered from many reports (values: NIAID ChemDB through PubChem).

All rows: growth or infection tests; agent: Mycobacterium tuberculosis

MIC bound comes from a single tested concentration.

smiles	read-out	method	changes	cells	tested at	strain	value
CCN(CC)CCNc1ccc2nc(C)n3c4ccc(OC)cc4c(=O)c1c23.Cl	MIC			VERO		H37Rv	12.5 µg/mL
CN1c2ccccc2CCC1CCc1ccc2c(c1)OCO2	MIC					MT8	169 µg/mL
COc1cc(OC)c2c(=O)cc(-c3ccc(O)cc3)oc2c1	MIC					H37Rv	>12.5 µg/mL
CCCCCCCC(CC(=O)O)OC(=O)CC(CCCCCCC)OC1O[C@@H](C)[C@H](O)[C@@H](O)[C@H]1O[C@@H]1O[C@@H](C)[C@H](O)[C@@H](O)[C@H]1O	MIC bound	BACTEC				H37Rv	>12.5 µg/mL
COc1ccc(/C(C)=N/NC(=O)c2ccncc2)c(OC)c1	MIC					H37Rv	>20 µg/mL
Nc1ccc(C(=O)CCl)c(Cl)c1	MIC bound	BACTEC				H37Rv	≤12.5 µg/mL
CCOC(=O)Nc1cc(NCC(O)CN)c([N+](=O)[O-])c(NC(=O)OCC)n1	EC50					H37Rv	>12.5 µg/mL
O=C(NCCNCCNC(=O)C(F)(F)F)C(F)(F)F.O=C(O)C(F)(F)F	MIC bound	resazurin				H37Rv	>6.25 µg/mL
Cn1c(=O)c(N=Nc2ccc([N+](=O)[O-])cc2)c(O)c2ccccc21	MIC	resazurin				H37Rv	>6.25 µg/mL
COc1ccc(-c2oc3c(I)cccc3c(=O)c2O)cc1	MIC					H37Rv	>12.5 µg/mL
CCc1nc2ccccc2n1CCCCSc1ccc2ccccc2n1	MIC99	turbidity / fluorescence				H37Rv	18 µM
N[C@@H]1CONC1=O	Mean MIC					H37Rv	22 µg/mL
NC(=O)c1cnc(Cl)cn1	MIC					ATCC 27294	16 µg/mL
COc1ccccc1NC(=S)S	MIC bound	BACTEC				H37Rv	>12.5 µg/mL
CCn1c(-c2cc3ccccc3oc2=O)cs/c1=N\N=C\c1ccc(Cl)cc1	MIC					H37Rv	>12.5 µg/mL
CO[C@H]1/C=C/O[C@@]2(C)Oc3c(C)c(O)c4c(O)c(c5c(c4c3C2=O)NC2(CCN(CC(C)C)CC2)N=5)=NC(=O)/C(C)=C\C=C\[C@H](C)[C@H](O)[C@@H](C)[C@@H](O)[C@@H](C)[C@H](OC(C)=O)[C@@H]1C	Median MIC					H37Ra	≤0.006 µg/mL
C=CCn1c(-c2cc3cc(Br)ccc3oc2=O)cs/c1=N\N=C\c1ccc(O)c(OCC)c1	MIC					H37Rv	>12.5 µg/mL
Cc1cccc(N=Nc2c(O)c3cccc([N+](=O)[O-])c3[nH]c2=O)c1	MIC	resazurin				H37Rv	<6.25 µg/mL
CC(=O)NC[C@H]1CN(c2ccc(N3CCSCC3)c(F)c2)C(=O)O1	MIC bound	resazurin				H37Rv	<6.25 µg/mL
C[C@H]1COc2c(N3CCN(C)CC3)c(F)cc3c(=O)c(C(=O)O)cn1c23	MBC90					MDR	4 µg/mL
NC(=O)c1cnccn1	MIC					Isolate 98-31	900 µg/mL
O=C(ON(Cc1ccccc1)C(=O)C1C=CC=C1)C1=CCC=C1	MIC bound	BACTEC				H37Rv	>12.5 µg/mL
COc1ccc(/C(C)=N/NC(=O)c2ccncc2)cc1OC	MIC					H37Rv	>20 µg/mL
CCOC(=O)CC(=O)c1sc(Nc2ccccc2)c(C(N)=O)c1N	inhibition	resazurin			6.25 µg/mL	H37Rv	-9%
COc1ccc(CCC2CCc3ccccc3N2C)cc1OC	MIC					MT3	>100 µg/mL
O=C(/C=C/c1ccccc1)c1cccc2ccccc12	MIC					H37Rv	>12.5 µg/mL
CN(C)CCOCCOC(=O)N1c2ccccc2Sc2ccccc21.Cl	MIC bound	BACTEC				H37Rv	>12.5 µg/mL
Cc1ccccc1N=Nc1c(O)c2ccccc2n(C)c1=O	inhibition	resazurin			6.25 µg/mL	H37Rv	97%
CCOP1(=S)NNP(=S)(OCC)NN1	MIC bound	BACTEC				H37Rv	≤128 µg/mL
COc1ccc(-c2cc(=O)c3c(OC)cc(OC)c(I)c3o2)cc1	MIC					H37Rv	>12.5 µg/mL
Nc1ccc(C(=O)O)c(O)c1	Mean MIC					H37Rv	1.25 µg/mL
NCC[C@H](O)C(=O)N[C@@H]1C[C@H](N)[C@@H](O[C@H]2O[C@H](CN)[C@@H](O)[C@H](O)[C@H]2O)[C@H](O)[C@H]1O[C@H]1O[C@H](CO)[C@@H](O)[C@H](N)[C@H]1O	MIC					90-0241 (drug-susceptible)	0.5 µg/mL
C[C@H]1CC[C@]2(NC1)O[C@H]1C[C@H]3[C@@H]4CC[C@H]5C[C@@H](O[C@@H]6O[C@H](CO)[C@H](O[C@H]7O[C@H](CO)[C@@H](O)[C@H](O[C@@H]8OC[C@@H](O)[C@H](O)[C@H]8O)[C@H]7O[C@@H]7O[C@H](CO)[C@@H](O)[C@H](O)[C@H]7O)[C@H](O)[C@H]6O)CC[C@]5(C)[C@H]4CC[C@]3(C)[C@H]1[C@@H]2C	MIC	BACTEC				H37Rv	≥128 µg/mL
NC1CCN(c2c(F)cc3c(=O)c(C(=O)O)cn(C4CC4)c3c2Cl)C1	MIC50					Drug-resistant	0.125 µg/mL
CCc1nc2ccccc2n1CCCCOc1cccc(C)c1	MIC90	turbidity / fluorescence	QcrB M342T			H37Rv	16 µM
CO[C@H]1/C=C/O[C@@]2(C)Oc3c(C)c(O)c4c(O)c(c(/C=N/N5CCN(C6CCCC6)CC5)c(O)c4c3C2=O)NC(=O)/C(C)=C\C=C\[C@H](C)[C@H](O)[C@@H](C)[C@@H](O)[C@@H](C)[C@H](OC(C)=O)[C@@H]1C	MIC					H37Rv (capreomycin-resistant)	1.25 µg/mL
N[C@@H]1CONC1=O	MIC					90-0241 (drug-susceptible)	75 µg/mL
CCC[C@@H]1C[C@@H](C(=O)N[C@@H]([C@H]2O[C@H](SC)[C@H](O)[C@@H](O)[C@H]2O)[C@@H](C)O)N(C)C1	Mean MIC					H37Ra	>256 µg/mL
CC(=O)N[C@@H](C=O)[C@@H](O)[C@H](O)[C@H](O)C(=O)O	inhibition	BACTEC			12.5 µg/mL	H37Rv	10%
CC(=O)O[C@H]1C[C@@]2(C)[C@@H](C[C@@H](O)[C@H]3[C@@]4(C)CC[C@@H](O)[C@@H](C)[C@@H]4CC[C@@]32C)/C1=C(\CCC=C(C)C)C(=O)O	Mean MIC					H37Ra	3 µg/mL
NNC(=O)c1ccncc1	MIC					Isolate 40	2 µg/mL
CCc1ccc([C@H]2C[C@@H](C(F)(F)F)n3ncc(C(=O)NCc4ccc5c(c4)OCO5)c3N2)cc1	fold resistance	fluorescence	MmpL3: Ala677Val			H37Rv	11.3
COC(=O)C(=O)c1c(-c2cccnc2)[nH]c2ccccc12	MIC bound	BACTEC				H37Rv	>6.25 µg/mL
CO/C(=N\N=C\c1ccc(OC)c(OC)c1)c1ccncc1	MIC					6 PI	>20 µg/mL
O=C(/C=C/c1ccccc1)c1cccc(I)c1O	inhibition				12.5 µg/mL	H37Rv	0%
CCOC(=O)Nc1cc(N(C)/N=C/c2ccccc2)c([N+](=O)[O-])c(Cl)n1	EC50					H37Rv	>12.5 µg/mL
CCOc1cc(O)c(C(=O)/C=C/c2cc(OC)c(OC)c(OC)c2)c(O)c1	MIC					H37Rv	>12.5 µg/mL
CC1COc2c(N3CCN(C)CC3)c(F)cc3c(=O)c(C(=O)O)cn1c23	MIC					ATCC 35823	0.5 µg/mL
CC(C)N=c1cc2n(-c3ccc(Cl)cc3)c3ccccc3nc-2cc1Nc1ccc(Cl)cc1	MIC					H37Rv	0.1 µg/mL
O=c1[nH]c2c(Cl)ccc(Cl)c2c(O)c1N=Nc1cccc(Cl)c1	inhibition	resazurin			6.25 µg/mL	H37Rv	32%
NCC[C@H](O)C(=O)N[C@@H]1C[C@H](N)[C@@H](O[C@H]2O[C@H](CN)[C@@H](O)[C@H](O)[C@H]2O)[C@H](O)[C@H]1O[C@H]1O[C@H](CO)[C@@H](O)[C@H](N)[C@H]1O	Median MIC					H37Ra	0.6 µg/mL
CCOC(=O)Nc1cc(N[C@H](C)C(=O)c2ccccc2)c([N+](=O)[O-])c(N)n1	EC50					H37Rv	>12.5 µg/mL
C=CCn1c(-c2cc3ccccc3oc2=O)cs/c1=N\N=C\c1ccc(Cl)cc1	EC50					H37Rv	>12.5 µg/mL
Cc1cc(NC(=O)NC(=O)c2ccccc2NC(=O)CN(C)C)ccc1Oc1ncc(Br)cn1.Cl	MIC bound	BACTEC				H37Rv	>12.5 µg/mL
NC[C@@H]1O[C@H](O[C@H]2[C@@H](O)[C@H](O[C@@H]3[C@@H](O)[C@H](N)C[C@H](N)[C@H]3O[C@H]3O[C@H](CO)[C@@H](O)[C@H](O)[C@H]3N)O[C@@H]2CO)[C@H](N)[C@@H](O)[C@@H]1O	Mean MIC					H37Rv	2.25 µg/mL
C[C@@H]1CN(c2c(F)c(N)c3c(=O)c(C(=O)O)cn(C4CC4)c3c2F)C[C@H](C)N1	MIC					ATCC 35828	0.06 µg/mL
C/C(=N\NC(=O)c1ccncc1)c1ccc(F)cc1	MIC					16PI	>20 µg/mL
CCc1nc2ccc(C)cc2n1CCCCNc1ccccc1	MIC90	turbidity / fluorescence	WT			H37Rv	0.21 µM
COc1ccc2c(=O)c(Br)c(-c3ccc(Cl)cc3)oc2c1	MIC					H37Rv	>12.5 µg/mL
CCn1c(-c2cc3cc(Br)ccc3oc2=O)cs/c1=N\N=C\c1ccc(Cl)cc1	EC50					H37Rv	<12.5 µg/mL
O=[N+]([O-])c1c(Cl)sc(Cl)c1[N+](=O)[O-]	MIC bound	BACTEC				H37Rv	>6.25 µg/mL
CC1CN(c2cc3c(cc2F)c(=O)c(C(=O)O)cn3-c2ccc(F)cc2F)CCN1	MBC					ATCC 35827	2 µg/mL
CCOC(=O)Nc1cc(NC(=O)OCC)c([N+](=O)[O-])c(NC(c2ccccc2)c2ccccc2)n1	EC50					H37Rv	>12.5 µg/mL
COc1ccc2nc3cc(Cl)ccc3c(NN3CCN(CCO)CC3)c2c1	inhibition	BACTEC			12.5 µg/mL	H37Rv	22.22%
Cc1ccc(N=Nc2c(O)c3cccc(Cl)c3[nH]c2=O)cc1	MIC	resazurin				H37Rv	>6.25 µg/mL
CC(=O)NC[C@H]1CN(c2ccc(N3CCN(Cc4ccc([N+](=O)[O-])s4)CC3)c(F)c2)C(=O)O1	MIC90					59 isolates	0.25 µg/mL
CCOc1cc(/C=N/N=c2\scc(-c3cc4ccccc4oc3=O)n2C2CCCCC2)ccc1O	inhibition				12.5 µg/mL	H37Rv	98%
Cc1onc(-c2ccccc2Cl)c1C(=O)N[C@@H]1C(=O)N2[C@@H]1SC(C)(C)[C@@H]2C(=O)O	Mean MIC					H37Rv	256 µg/mL
Nc1nc2ccc(CN(C=O)c3ccc(C(=O)N[C@@H](CCC(=O)O)C(=O)O)cc3)cc2c(=O)[nH]1	MIC bound	BACTEC				H37Rv	>12.5 µg/mL
O=C(O)c1ccc(O)c(C(=O)/C=C/c2cccc(I)c2)c1	MIC					H37Rv	>12.5 µg/mL
CC1COc2c(N3CCN(C)CC3)c(F)cc3c(=O)c(C(=O)O)cn1c23	MIC					90-0233 (INH SM-RS)	0.5 µg/mL
COc1ccc(-c2oc3cc(I)ccc3c(=O)c2O)cc1	MIC					H37Rv	>12.5 µg/mL
CC[C@@H](CO)NCCN[C@@H](CC)CO	MIC					90-0201 (drug-susceptible)	1 µg/mL
CCOC(=O)Nc1cc(Nc2ccc(Cl)cc2)c(N)c(N)n1	EC50					H37Rv	<12.5 µg/mL
O=c1ccc2c(-c3ccccc3S(=O)(=O)O)c3ccc(O)c(O)c3oc-2c1O	MIC bound	BACTEC				H37Rv	>12.5 µg/mL
CCc1cc(C(N)=S)ccn1	MIC					92-0492 MDR (INH RIF-resistant)	0.25 µg/mL
CCCN(CCC)C(=S)Sc1nc(C)nc(N2CCN(c3nc(C)nc(SC(=S)N(CCC)CCC)c3[N+](=O)[O-])CC2)c1[N+](=O)[O-]	inhibition	resazurin			6.25 µg/mL	H37Rv	22%
CCc1nc2ccccc2n1CCCCOc1ccc(C)c(Cl)c1	MIC90	turbidity / fluorescence	WT			H37Rv	3.5 µM
Cc1ccc(S(=O)(=O)NNC(=O)c2ccccc2NCCO)cc1	inhibition	BACTEC			12.5 µg/mL	H37Rv	8%
CC(=O)c1ccc(N=Nc2c(O)c3ccc(Cl)c(Cl)c3[nH]c2=O)cc1	inhibition	resazurin			6.25 µg/mL	H37Rv	98%

Repeating the final 5 entries:

smiles | read-out | method | changes | cells | tested at | strain | value
CCc1cc(C(N)=S)ccn1 | MIC |  |  |  |  | 92-0492 MDR (INH RIF-resistant) | 0.25 µg/mL
CCCN(CCC)C(=S)Sc1nc(C)nc(N2CCN(c3nc(C)nc(SC(=S)N(CCC)CCC)c3[N+](=O)[O-])CC2)c1[N+](=O)[O-] | inhibition | resazurin |  |  | 6.25 µg/mL | H37Rv | 22%
CCc1nc2ccccc2n1CCCCOc1ccc(C)c(Cl)c1 | MIC90 | turbidity / fluorescence | WT |  |  | H37Rv | 3.5 µM
Cc1ccc(S(=O)(=O)NNC(=O)c2ccccc2NCCO)cc1 | inhibition | BACTEC |  |  | 12.5 µg/mL | H37Rv | 8%
CC(=O)c1ccc(N=Nc2c(O)c3ccc(Cl)c(Cl)c3[nH]c2=O)cc1 | inhibition | resazurin |  |  | 6.25 µg/mL | H37Rv | 98%

Percent inhibition refers to the dose given; in toxicity tests it is the harm to the cells. Blank or dashed fields: not listed here. A number after MIC or MFC names an inhibition level or a share of isolates. Neighbouring rows are from separate reports. ECn: concentration that inhibits the pathogen or its effect by n%. Fold resistance has wild type as its base.